Results published in paper PMC5454942, “The Potential of Triterpenoids from Loquat Leaves (Eriobotrya japonica) for Prevention and Treatment of Skin Disorder” (International Journal of Molecular Sciences, 2017).
Where “and” joins values, the source holds several entries; their conditions need not be identical. Equal values may be shown once.

System: B16 melanoma cells
Assay: Anti-melanogenesis assay (melanin content)
Type: cell-based, mouse
Experimental: This assay was performed as described by Arung et al.. The mouse melanoma cell line B16 was obtained from the Riken Bioresource Center Cell Bank (Tsukuba, Japan). The B16 melanoma cells were maintained in Eagle’s Minimal Essential Medium (EMEM, Nissui Chemical, Tokyo) supplemented with 10% (v/v) fetal bovine serum (FBS; Gibco, Carlsbad, CA, USA) and 0.09 mg/mL theophylline (Sigma-Aldrich, St. Louis, MO, USA). […] After 24 h, test samples were dissolved in DMSO (<0.2% per well) and sample solution were added to each well. Arbutin (Tokyo Kasei Kogyo, Tokyo) was used as a positive control. The cells were incubated for an additional 48 h, and then the medium was replaced with fresh medium containing each sample again. After 24 h, the melanin content and the cell viability were measured using a microplate reader (BioTek-ELX800, BioTek Instruments, Winooski, VT, USA) at 405 nm and 570 nm, respectively. Cell viability was measured using the MTT (3-(4,5-dimethylthiazol-2-yl)-2,5-diphenyltetrazolium bromide) method.

SMILES	S.I (selectivity index, CC50 value/IC50 value)
COC(=O)[C@]12CCC(C)(C)C[C@@H]1C1=CC[C@@H]3[C@@]4(C)C[C@@H](O)[C@H](O)C(C)(C)C4CC[C@@]3(C)[C@]1(C)CC2 (some centres unmarked) [Compound 5, Methyl maslinate]	> 1.0 and 1.4
COC(=O)[C@]12CC[C@@H](C)[C@H](C)[C@H]1C1=CC[C@@H]3[C@@]4(C)C[C@@H](O)[C@H](O)C(C)(C)[C@@H]4CC[C@@]3(C)[C@]1(C)CC2 [Compound 6, methyl corosolate]	> 1.0 and 1.2
C[C@@H]1CC[C@]2(C(=O)O)CC[C@]3(C)C(=CC[C@@H]4[C@@]5(C)C[C@@H](O)[C@H](O)C(C)(C)[C@@H]5CC[C@]43C)[C@@H]2[C@]1(C)O [Compound 11, tormentic acid]	> 1.0 and 1.3
C[C@H]1[C@H](C)CC[C@]2(C(=O)O)CC[C@]3(C)C(=CC[C@@H]4[C@@]5(C)CCC(=O)C(C)(C)[C@@H]5CC[C@]43C)[C@H]12 [Compound 13, 3-oxours-12-en-28-oic acid]	0.5
C[C@@H]1CC[C@]2(C(=O)O)CC[C@]3(C)C(=CC[C@@H]4[C@@]5(C)CCC(=O)C(C)(C)[C@@H]5[C@H](O)C[C@]43C)[C@@H]2[C@]1(C)O [Compound 14, 6β,19-dihydroxyurs-12-en-3-oxo-28-oic acid]	0.7
